Measured values taken from patent US10975126B1 (priority 2020, dated 2021).

Tested on: MERS-CoV
Assay: Plaque reduction assay
Assay type: cell-based, MERS-CoV (CoV/KOR/KNIH/002_05_2015) in Vero cells
Details: 10 μM peptide mixed with MERS-CoV for 30 min; Vero cells; counted four days after infection

Structure (SMILES): CC[C@H](C)[C@H](NC(=O)[C@H](Cc1ccc(O)cc1)NC(=O)[C@H](CO)NC(=O)[C@H](CCC(=O)O)NC(=O)[C@H](CC(N)=O)NC(=O)[C@H](CC(C)C)NC(=O)[C@H](CCCCN)NC(=O)[C@H](CCCCN)NC(=O)[C@@H](NC(=O)[C@@H](NC(=O)[C@H](CCC(=O)O)NC(=O)[C@H](CCC(=O)O)NC(=O)[C@H](CC(C)C)NC(=O)[C@H](CO)NC(=O)[C@H](CCCNC(=N)N)NC(=O)[C@H](CCSC)NC(=O)[C@H](CCC(=O)O)NC(=O)[C@H](Cc1ccc(O)cc1)NC(=O)[C@H](CCC(=O)O)NC(=O)[C@H](CC(C)C)NC(=O)[C@H](CC(=O)O)NC(=O)[C@H](CC(C)C)NC(=O)[C@H](CC(C)C)NC(=O)[C@@H](NC(=O)[C@@H](NC(=O)[C@H](CC(N)=O)NC(=O)[C@@H](NC(=O)[C@H](CCC(N)=O)NC(=O)[C@@H](NC(=O)[C@H](CC(C)C)NC(=O)[C@@H](N)CO)[C@@H](C)O)[C@@H](C)CC)[C@@H](C)O)[C@@H](C)O)C(C)C)C(C)C)C(=O)N[C@@H](CC(=O)O)C(=O)N[C@@H](CCC(=O)O)C(=O)N[C@@H](CCCCN)C(=O)N[C@@H](CCC(=O)O)C(=O)N[C@@H](CC(C)C)C(=O)O
- # Plaques: 48
